# Laboratory results taken from article PMC12090765, “Structure and function of an unusual R452-dependent monoclonal antibody against SARS-CoV-2” (Journal of Virology, 2025).
# B1: ConD-852 (IgG form) (antibody, V domains shown)
# VH: QVQLVESGGGVVQPGRSLRLSCAASGFTFSSYGMHWVRQAPGKGLEWVALIWFDGSNKYYADSVKGRFTISRDNSKNTLYLQMNSLRAEDTAVYYCARDGLDLEWLFGLFDYWGQGTLVTVSS
# VL: not shown
# Target: T1, SARS-CoV-2 WT-RBD protein (SARS-CoV-2 wild type, UniProt P0DTC2)
# T1 construct: source: bought: Sino Biological
# Assay: ELISA
# Settings: both partners purified
binder,measurement,value
B1,binding result,no binding
